Experimental data: PubChem BioAssay AID624099 (ICCB-Longwood, 2012)
The whole screen tested about 21,000 reagents; this is an unselected part. Of all reagents, 497 (2.4%) were called active. 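Higher z means weaker E2 silencing; only reporter increases were scored, and knock-downs that hurt cell survival may mask genuine repressor factors.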

Screen: 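Knock-downs relieving repression by E2 of an HPV18 LCR luciferase reporter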 (primary screen)
Cell system: human C33A cervical carcinoma cells (HPV-negative) stably expressing BPV1 E2 and an HPV18 LCR luciferase reporter
Knock-down reagent: siRNA pool against human genes, 40 nM
Duration: 72 h
Read-out: 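Per-well luciferase luminescence, z-scored on each plate against the plate mean and SD with control wells left out, then averaged across three replicate plates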
Scale: mean z-score and z-score: higher = stronger reporter signal, weaker E2 silencing
Hit rule: 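Hit if mean z-score reaches 2 and two or more of three replicate z-scores also reach 2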

no.	target gene	mean z-score	z-score, replicate A	z-score, replicate B	z-score, replicate C	outcome
1	NPHS2	-0.79	-0.89	-0.76	-0.71	inactive
2	CDC42EP4	0.51	0.38	0.48	0.68	inactive
3	TENM3-AS1	-0.15	-0.42	0.05	-0.09	inactive
4	OR52L1	0.89	1.06	0.71	0.91	inactive
5	MARK2	-2.6	-0.96	-6.03	-0.81	inactive
6	CNTN6	0.87	0.93	0.77	0.9	inactive
7	MYO5B	2.01	2.19	1.88	1.96	inactive
8	PRPF8	0.47	0.38	0.5	0.54	inactive
9	REXO1L1P	-0.49	-0.66	-0.38	-0.43	inactive
10	DAGLA	-0.52	-0.46	-0.63	-0.47	inactive
11	ENTR1P1	-0.26	-0.37	-0.51	0.1	inactive
12	PLXNA3	-1.8	-1.77	-1.82	-1.8	inactive
13	ARVCF	0.28	0.81	0.07	-0.05	inactive
14	AIF1	0.92	0.59	1.27	0.91	inactive
15	HECW2	-1.51	-1.88	-1.08	-1.57	inactive
16	MSH4	-0.13	-0.05	-0.27	-0.07	inactive
17	GDNF	0.03	0.03	0.15	-0.1	inactive
18	BTG1	-0.01	-0.21	0.13	0.06	inactive
19	LSM2	-1.37	-1.29	-1.48	-1.33	inactive
20	LRRC37BP1	-0.74	-1.11	-0.65	-0.45	inactive
21	TMPRSS15	0.89	1.64	0.69	0.34	inactive
22	CAPSL	-0.25	-0.35	0.01	-0.42	inactive
23	ZMIZ2	-0.21	-0.46	0.04	-0.22	inactive

In a second layout: entries from further up.
| target gene | mean z-score | z-score, replicate A | z-score, replicate B | z-score, replicate C | outcome |
| --- | --- | --- | --- | --- | --- |
| TENM3-AS1 | -0.15 | -0.42 | 0.05 | -0.09 | inactive |
| OR52L1 | 0.89 | 1.06 | 0.71 | 0.91 | inactive |
| MARK2 | -2.6 | -0.96 | -6.03 | -0.81 | inactive |
| CNTN6 | 0.87 | 0.93 | 0.77 | 0.9 | inactive |
